A mixed list of measured activities; the numbers were collected in NIAID ChemDB.

Common to all: cytotoxicity tests; cells: MT-2; read-out: CC50

An empty or dashed field is not shown. CCn: concentration that lowers growth or viability of the cells by n%. Rows are shuffled and stem from different studies.

smiles,method,result
COC(=O)[C@H](C)NP(=O)(OC[C@H]1C/C1=C\n1cnc2c(=O)[nH]c(N)nc21)Oc1ccccc1,,>100 µM
Nc1ncnc2c1ncn2[C@H]1CC[C@@H](CO)C1,,>62.2 µg/mL
Nc1nc2c(ncn2[C@H]2C=C[C@@H](CO)O2)c(=O)[nH]1,,47 µM
COC(=O)[C@H](C)NP(=O)(OCC1C/C1=C\n1cnc2c(N)ncnc21)Oc1ccccc1,,24 µM
Nc1nc(N)c2ncn([C@H]3C=C[C@@H](CO)C3)c2n1,,>58.8 µg/mL
Nc1nc(N)c2ncn([C@H]3CO[C@@H](CO)O3)c2n1,,>>100 µM
Cc1cn([C@H]2C[C@H](N=[N+]=[N-])[C@@H](CO)O2)c(=O)[nH]c1=O,,>100 µM
CN1CCC(=C2c3ccccc3C=Cc3ccccc32)CC1,ATP,>100 µM
Nc1nc2c(ncn2CCOCP(=O)(O)O)c(=O)[nH]1,propidium iodide,2.5 µM
Cc1cn([C@H]2C[C@H](N=[N+]=[N-])[C@@H](CO)O2)c(=O)[nH]c1=O,,132 µg/mL
CCCCCCCCCCCCCCCCOCCCOP(=O)(O)CO[C@H](CO)Cn1cc(F)c(=O)[nH]c1=O,propidium iodide,35 µM
CC(C)OC(=O)OCOP(=O)(CO[C@H](C)Cn1cnc2c(N)ncnc21)OCOC(=O)OC(C)C,,22 µM
CCCc1c([Se]c2ccccc2)n(COCC)c(=O)[nH]c1=O,MTT,>84 µM
Nc1ccn([C@H]2CC[C@@H](CO)O2)c(=O)n1,,32 µM
CCCCCCCCCCCCCCCCOCCCOP(=O)(O)COCCn1cnc2c(NC3CC3)nc(N)nc21,propidium iodide,0.12 µM
Nc1nc(N)c2ncn([C@H]3CC[C@@H](CO)C3)c2n1,,>91.9 µg/mL
Nc1ccn([C@H]2CC[C@@H](CO)O2)c(=O)n1,,>10 µg/mL
CCCCCCCC/C=C\CCCCCCCCOCCOP(=O)(O)COCCn1cnc2c(NC3CC3)nc(N)nc21,propidium iodide,0.004 µM

The last 2 rows once more:

smiles | method | result
Nc1ccn([C@H]2CC[C@@H](CO)O2)c(=O)n1 |  | >10 µg/mL
CCCCCCCC/C=C\CCCCCCCCOCCOP(=O)(O)COCCn1cnc2c(NC3CC3)nc(N)nc21 | propidium iodide | 0.004 µM